Article PMC4281115

The chains behind the UniProt entries cited, without tags or fusion partners. Residues count along the entry.
UniProt Q9WMX2, 1027-1657: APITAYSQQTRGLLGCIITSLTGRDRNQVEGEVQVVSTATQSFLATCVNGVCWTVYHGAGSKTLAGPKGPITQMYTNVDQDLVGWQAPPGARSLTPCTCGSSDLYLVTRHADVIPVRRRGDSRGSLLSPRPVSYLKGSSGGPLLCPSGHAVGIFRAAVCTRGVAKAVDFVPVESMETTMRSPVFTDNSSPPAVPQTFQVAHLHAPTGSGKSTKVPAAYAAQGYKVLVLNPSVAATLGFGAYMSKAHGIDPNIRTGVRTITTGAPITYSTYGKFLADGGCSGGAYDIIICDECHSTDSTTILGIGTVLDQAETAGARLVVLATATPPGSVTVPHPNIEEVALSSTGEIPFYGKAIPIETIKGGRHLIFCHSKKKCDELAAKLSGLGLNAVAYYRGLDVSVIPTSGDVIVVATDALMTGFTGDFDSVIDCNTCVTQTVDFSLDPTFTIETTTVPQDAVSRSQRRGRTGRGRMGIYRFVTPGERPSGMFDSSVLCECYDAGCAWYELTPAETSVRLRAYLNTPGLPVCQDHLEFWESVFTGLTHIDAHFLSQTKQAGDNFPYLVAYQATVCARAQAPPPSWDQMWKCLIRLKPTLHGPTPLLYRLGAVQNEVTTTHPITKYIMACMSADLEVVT
UniProt Q9WMX2, 1193-1657: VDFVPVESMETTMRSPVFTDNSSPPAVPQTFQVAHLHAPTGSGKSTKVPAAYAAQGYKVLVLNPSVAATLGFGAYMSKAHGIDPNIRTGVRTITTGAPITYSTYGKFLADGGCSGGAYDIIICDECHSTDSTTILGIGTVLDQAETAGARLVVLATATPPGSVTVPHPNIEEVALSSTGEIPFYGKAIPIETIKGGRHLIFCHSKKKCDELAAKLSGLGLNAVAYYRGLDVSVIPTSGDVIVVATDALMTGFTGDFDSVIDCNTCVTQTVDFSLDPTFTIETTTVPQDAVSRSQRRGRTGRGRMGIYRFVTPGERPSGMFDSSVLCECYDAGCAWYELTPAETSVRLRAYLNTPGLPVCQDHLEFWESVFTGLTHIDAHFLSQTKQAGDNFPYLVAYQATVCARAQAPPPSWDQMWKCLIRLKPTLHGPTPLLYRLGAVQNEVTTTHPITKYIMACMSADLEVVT

Experiments:
NS3FL (full-length NS3) = NS3FL (full-length NS3) (UniProt Q9WMX2); experiment: Trp fluorescence quenching; settings: 25 mM MOPS-NaOH pH 6.4 or 7.2, 2 mM MgCl2, 25 C, 25 nM 5-FAM-dT20 with 0-10 uM NS3hel or 0-5 uM NS3FL, 10 min (anisotropy), 1 uM protein with 0-1 uM ssDNA, recombinant protein, protein details: C-terminal 6xHis, single-stranded DNA
[1] = molecular target: NS3hel (NS3 helicase domain) (UniProt Q9WMX2); experiment: Trp fluorescence quenching; settings: pH 6.4, 2 mM MgCl2, quenching greater than at pH 7.2; 25 mM MOPS-NaOH pH 6.4 or 7.2, 2 mM MgCl2, 25 C; 25 nM 5-FAM-dT20 with 0-10 uM NS3hel or 0-5 uM NS3FL, 10 min (anisotropy); 1 uM protein with 0-1 uM ssDNA; recombinant protein; protein details: N-terminal 6xHis-TEV, cleaved; single-stranded DNA

Measured: binding result

TTTTTTTTTTTTTTTTTTTT [oligo(dT)20 unlabeled]
binds: NS3FL (full-length NS3); pH 6.4, 2 mM MgCl2, less quenching than NS3hel, no pH difference | NS3FL (full-length NS3); pH 7.2, 2 mM MgCl2, no significant difference from pH 6.4 | [1]

For at least one entry, the source does not settle the construct or the ends of the probe. At least one verdict rests on a figure or table, not on a statement of the authors.
